One substance from patent US20210054055A1 can be followed below.

The target of this assay is PRV (Zika virus).

In the case of EDE1 mAb C10 (antibody), the FRNT50 (focus reduction neutralization on Vero cells) stood at 40.3 ng/mL.
